Reference: publication PMC10926671, “Liquid–liquid phase separation of H3K27me3 reader BP1 regulates transcriptional repression” (2024)

Biological target: H3K27me3 peptide
Test: ITC

Which Kd does the source give for MBP-BP1^ΔIDR1 (domain or fragment) here?
Its Kd is 15.6 µM.
